The target in this data set is GFP-SNAP25 (134-206) fusion protein substrate (UniProt P60880).

Take “recombinant BoNT/A-LC, wild type, baculovirally expressed, C-terminal His tag”: the “endopeptidase enzymatic activity (GFP-SNAP cleavage assay)” value is “showed significant high activity”.
